Active and inactive are the calls of the source.
Columns and labels:
[1] = Induction of [32P]-labeled 49-mer oligonucleotide duplex DNA 12 interstrand cross-linking (unknown origin) at purine nucleotide site using compound radiolabeled at 5' of 12a in phosphate buffer at pH 7 at 90 degC after 30 mins by PAGE
[2] = Induction of [32P]-labeled 49-mer oligonucleotide duplex DNA 12 interstrand cross-linking (unknown origin) at purine nucleotide site using compound radiolabeled at 5' of 12b in phosphate buffer at pH 7 at 90 degC after 30 mins by PAGE
[3] = Induction of [32P]-labeled 49-mer oligonucleotide duplex DNA 12 interstrand cross-linking (unknown origin) at purine nucleotide site using compound radiolabeled at 3' of 12a in phosphate buffer at pH 7 at 90 degC after 30 mins by PAGE
[4] = Induction of [32P]-labeled 49-mer oligonucleotide duplex DNA 12 interstrand cross-linking (unknown origin) at purine nucleotide site using compound radiolabeled at 5' of 12a at 90 deg C after 30 mins by PAGE in presence of piperidine
[5] = Induction of [32P]-labeled 49-mer oligonucleotide duplex DNA 12 interstrand cross-linking (unknown origin) at purine nucleotide site using compound radiolabeled at 5' of 12b at 90 deg C after 30 mins by PAGE in presence of piperidine
[6] = Induction of [32P]-labeled 49-mer oligonucleotide duplex DNA 12 interstrand cross-linking (unknown origin) at purine nucleotide site using compound radiolabeled at 3' of 12a at 90 deg C after 30 mins by PAGE in presence of piperidine

Measured: Activity

Oc1ccc(N(CCCl)CCCl)cc1
active: [1] | [2] | [3] | [4] | [5] | [6]

Reference: ChEMBL document CHEMBL3286203, “Reactive oxygen species (ROS) inducible DNA cross-linking agents and their effect on cancer cells and normal lymphocytes” (J Med Chem, 2014)
